These results are taken from article PMC8017934.

For assay [1], the target named is human 40S ribosomal subunit with the ybbR tag on uS19, Cy3-labelled (human (endogenous in HEK293T)) (UniProt P62841).
Assay [2] has the same target. This is another data set of the same source.
Assay [3] has as its target human 40S ribosomal subunit with the ybbR tag on RACK1, biotinylated or Cy5-labelled (human) (UniProt P63244).
The target in assay [4] is human 40S ribosomal subunit with the ybbR tag on uS19, Cy3-labelled (human (endogenous in HEK293T)) (UniProt P62841). This is another data set of the same source.

Usually koff stands for the rate constant with which the complex falls apart. A lower koff goes with a long-lived complex. In assay [1], “SARS-CoV-2 NSP1 with an N-terminal ybbR tag, fluorescently labelled (from UniProt P0DTD1 1-180) (natural protein)” showed a koff of 0.0072 s⁻¹. Moreover, the kobs of NSP1 reassociation in assay [2] was under 0.0014 s⁻¹. For the same substance, the fraction of IRES–40S complexes bound at least once by NSP1 (≥∼5 s) in assay [3] was 81%. In addition, the fraction of complexes bound at least once by NSP1 in assay [4] was 45%.
